# Percent effect of library compounds

Source: ChEMBL document CHEMBL3988442, “University of Dundee, Small-Polar-MMV Screening Library” (2021).

Values are the deposited “Percent Effect”, in %.
The record does not define 0% and 100%; most values in the screen are far below 50% and negative numbers occur (in some assays of this library far below -100).
The entries come from a sample that favours strong results.

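Phenotypic screen: M. tuberculosis growth, cholesterol and DPPC medium, 4 days; the read-out is not stated. Concentration: 500 µM. Direction is inferred from retests: higher values go with more growth inhibition. About 18,000 compounds were tested under these conditions; 5% (about 900) showed 50% or more at least once.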

| compound | Percent Effect |
|---|---|
| `NCC1(O)CCS(=O)(=O)C1` (stereo not given) | 5.996 |
| `CC(c1nc(-c2ccccn2)no1)N1CCSCC1` (stereo not given) | 59.17 |
| `COCC(=O)N1CCCN(CCn2cc(Cl)cn2)CC1` | -4.726 |
| `NCc1ccc(OCC2CC2)nc1` | 30.4 |
| `CCOc1ccccc1C(=O)N1CCC(O)CC1` | 3.837 |
| `Cc1cc(CO)nn1C` | 3.164 |
| `NCc1cccc2cc[nH]c12` | 52.88 |
| `CN(CCCOc1ccc(S(C)(=O)=O)cc1)CC(N)=O` | 13.53 |
| `NCc1nc2c(s1)CCCC2` | 13.72 |
| `Cn1ncnc1NC(=O)c1c(F)cc(F)cc1F` | -11.4 |
| `Cc1ccc(-c2noc(CNS(C)(=O)=O)n2)cc1` | 72.04 |
| `Cn1cc(C(C)(O)CNc2cccc(F)c2C#N)cn1` (stereo not given) | 6.229 |
| `CC1CS(=O)(=O)CCN1C(=O)CCCSC(C)(C)C` (stereo not given) | 3.684 |
| `Cc1cc(F)ccc1NC(=O)NCC1(O)CCCNC1` (stereo not given) | 2.934 |
| `Cc1ccc(NC(=O)CCS(C)(=O)=O)c(CN(C)C)c1` | 4.409 |
| `NCCNS(=O)(=O)c1ccccc1` | 4.548 |
| `Cc1nonc1C(=O)Nc1cnc(N(C)C)nc1` | 11.58 |
| `C=C(Br)Cn1c(CO)nc2ccccc21` | 69.03 |
| `N#CCCNC(=O)CN1CCC2(CC1)OCCO2` | 0.7085 |
| `CCCc1ccc(CN2CCOCC(CO)C2)o1` (stereo not given) | -4.582 |
| `Cn1cncc1CN1CC[C@@]2(O)CCCC[C@H]2C1` | -9.878 |
| `CC(=O)c1csc(C(=O)Nc2n[nH]c(C3CCC3)n2)c1` | -5.105 |
| `CC(=O)Nc1ccc(C2=NN=C(NC(C)C)SC2)cc1` | 20.96 |
| `COc1ccccc1CCNC(=O)CC1CCNC1` (stereo not given) | 14 |
| `CC(C)C[C@H](N)c1nnc2ccccn12` | 13.38 |
| `NCCc1ccc(C(F)(F)F)cn1` | 23.18 |
| `CSCc1nc(CNC(=O)c2ccnn2C(C)C)cs1` | 30.87 |
| `Cc1ccc(C(=O)N2CCCC(CO)C2)o1` (stereo not given) | -7.101 |
| `CC[C@@H](N)c1ccc(F)cc1` | 5.722 |
| `OCC1CCN(Cc2ccccc2)CC1` | 8.914 |
| `NCC(=O)N(Cc1cccs1)Cc1cccs1` | 73.12 |
| `O=C(CCc1ccc(O)cc1)N[C@@H]1CCNC[C@H]1O` | -3.28 |
| `CN1CCN(C(=O)c2cc(-c3cccs3)on2)CC1` | 38.76 |
| `COC(=O)c1cccc(F)c1` | 8.886 |
| `COc1ccc(N2CCCNCC2)cc1` | 46.73 |
| `Cc1cccc(NC(=O)C2CCCN(CCC#N)C2)n1` (stereo not given) | -1.525 |
| `CCN(Cc1ccc(Cl)s1)C(=O)c1ccc(=O)n(C)n1` | -18.69 |
| `CCc1ccccc1CN1C(=O)CCC1=O` | 6.682 |
| `O=C(CCN1C(=O)CCC1=O)OCC(=O)c1ccc[nH]1` | -5.928 |
| `CCN1CCN(CCOc2ccc(C#N)cc2)CC1` | 3.632 |
| `CCC(C)NC(=O)c1cc(F)cc(F)c1` (stereo not given) | 59.74 |
| `CCc1ccccc1OCCN(C)CC(O)CO` (stereo not given) | 13.03 |
| `COC(=O)CNc1cc(Cl)ccc1C(=O)N1CCCC1` | 4.256 |
| `COc1cccc(CN2CCCS(=O)(=O)CC2)c1` | -2.709 |
| `Cn1ccnc1-c1nnc(NCc2ncc(Cl)n2C)o1` | -6.579 |
| `NC[C@@H](O)c1cccc(Br)c1` | -2.51 |
| `CCOc1ccc2c(c1)C(N)CCO2` (stereo not given) | 23.63 |
| `COc1cccc2c1CCNCC2` | 52.2 |
| `COCCN1CCC(CNc2cccc(C)n2)C1` (stereo not given) | 13.73 |
| `COCCNCCNC(=O)c1noc2c1CCCC2` | -0.662 |
| `O=C(CC1(O)CCCCC1)NCc1ncccc1F` | 42.38 |
| `CCC1CN(CCN2CCCC2=O)CCN1CCOC` (stereo not given) | -7.064 |
| `COCCSCC(=O)Nc1ccn(C)n1` | -4.326 |
| `CCCn1nnnc1NCc1ccc(F)cc1` | 60.93 |
| `CC(C)CC(C)(CN)NS(=O)(=O)c1cccnc1` (stereo not given) | 12.61 |
| `C=C(C)CNC(=O)Nc1cc(F)cc(OC)c1` | -0.955 |
| `CC(c1ccon1)N(C)C(=O)c1cccc(N)n1` (stereo not given) | -6.159 |
| `CC(C)c1cc(N)[nH]n1` | 19.3 |
| `Nc1ncccc1C(=O)NCCC1=CCCCC1` | 62.4 |
| `Cn1cnn(Cc2nnc(-c3cccs3)o2)c1=O` | -4.054 |
| `CN1CCC(N(C)CC(O)COCc2cccs2)CC1` (stereo not given) | 12.75 |
| `CC1CN(C)c2ccccc2CN1C(=O)c1cc[nH]n1` (stereo not given) | 7.376 |
| `COCCCN(C)S(=O)(=O)c1ccc(Br)cn1` | 56.18 |
| `Cn1nnc(NC(=O)c2ccc(C#N)cc2F)n1` | 8.664 |
| `Cc1cc(N)nc(SCc2cc(C)on2)n1` | 5.575 |
| `NCC1CCN(C2CCCCC2)C1` (stereo not given) | 8.584 |
| `CS(=O)(=O)N1CCCCC1CN1CCCC1=O` (stereo not given) | -2.147 |
| `CCc1nc(C)c(C(=O)N2CCOCC(O)C2)o1` (stereo not given) | 6.156 |
| `CCCn1ncnc1-c1ccc(C(N)=O)c(Cl)c1` | -8.419 |
| `OCC(O)CSCCN1CCCc2ccccc21` (stereo not given) | 28.81 |
| `NC1CCCN(c2ccc(C(F)(F)F)cn2)C1` (stereo not given) | 0.5564 |
| `O=C1OCCN1C1CCNC1` (stereo not given) | -9.359 |
| `c1ccc2[nH]c(NCC3CCCO3)nc2c1` (stereo not given) | 63.81 |
| `CN1CCN(C(=O)CC2Cc3ccccc3C2)CC1` | 60.88 |
| `COc1cc(OC)c(N(CCO)CCO)cc1Cl` | 10.5 |
| `CC1c2ccsc2CCN1C(=O)c1ccncc1` (stereo not given) | 14 |
| `c1cn(C2CCNCC2)nn1` | 56.79 |
| `Cn1ccc(NC(=O)CN2CC[C@](C)(O)C(C)(C)C2)n1` | -11.57 |
| `CN(CCN1CCCC1=O)C(=O)C1CCCO1` (stereo not given) | 23.2 |
| `COc1ccc(F)cc1C(=O)N1CCC(CN)CC1` | 19.84 |
| `Cn1nc(CN)c2ccccc21` | 21.98 |
| `N#CCS(=O)(=O)NCc1ccc(F)cc1` | 12.04 |
| `CNc1snc(C)c1C(=O)NCc1ncoc1C` | -4.735 |
| `Nc1nc(-c2ccc3c(c2)CCCC(=O)N3)cs1` | 28.93 |
| `CCOC(=O)c1cccnc1C` | 0.877 |
| `N#Cc1cccc(C2CNCCO2)c1` (stereo not given) | 26.42 |
| `CC(C)Cc1cc(C(=O)N(C)Cc2cnccn2)on1` | 55.9 |
| `CN(CCC#N)C(=O)COC(=O)c1ccccc1Br` | 0.9744 |
| `CC(=O)c1ccc(NCC(=O)NC(C)C(C)C)cc1` (stereo not given) | 64.89 |
| `Cc1cc(Br)cc(C(=O)NCc2nccc(N)n2)c1` | 80.48 |
| `CS(=O)(=O)NCC(=O)Nc1ccc(-n2cccn2)cc1` | 57.39 |
| `NC(=O)c1ccc2c(n1)NCCC2` | 3.532 |
| `CCC(CC)(CN)NS(=O)(=O)c1ccc(C(C)=O)cc1` | 15.58 |
| `N#Cc1ccccc1CSc1nnnn1C1CC1` | 34.69 |
| `COc1ccc(OC)c(CN(C)CCN(C)C)c1` | -13.85 |

The first 6 entries again:

compound,Percent Effect
NCC1(O)CCS(=O)(=O)C1 (stereo not given),5.996
CC(c1nc(-c2ccccn2)no1)N1CCSCC1 (stereo not given),59.17
COCC(=O)N1CCCN(CCn2cc(Cl)cn2)CC1,-4.726
NCc1ccc(OCC2CC2)nc1,30.4
CCOc1ccccc1C(=O)N1CCC(O)CC1,3.837
Cc1cc(CO)nn1C,3.164